Results of unrelated studies side by side (data: NIAID ChemDB).

Shared fields: whole-cell or culture tests; organism: Mycobacterium tuberculosis

Inhibition is in % at the dose shown (toxicity tests: loss of growth or viability). An empty or dashed field is not shown. MIC50, MIC90 and the like: level of inhibition, or share of isolates inhibited. Conditions beyond the fields shown may differ between rows. Two numbers with a dash give a range or band. MIC bound: limit read from a one-dose screen.

SMILES	read-out	strain	mutations	cell line	read by	setting	tested at	result
O=C(O)CCC(CCC(=O)O)=NNC(=O)c1ccccc1	MIC	H37Rv						100 µg/mL
COc1cc(C)c2c(Oc3cccc(C(F)(F)F)c3)c(OC)cc(NC(C)CCCN)c2n1	MIC	H37Ra			resazurin			10 µM
N#Cc1c(N)sc2sc(-c3ccccc3)cc12	MIC	MDR-TB				multidrug-resistant		>97.5 µM
COc1cccc2c1C(=O)c1c(O)c3c(c(O)c1C2=O)C[C@@](O)(/C(C)=N/NC(N)=O)CC3OC1CC(N)C(O)C(C)O1.Cl	MIC	EMB-R						>12.5 µg/mL
CCOC(=O)c1c(N)sc2sc(-c3cccc4ccccc34)cc12	MIC	MDR-TB				multidrug-resistant		1.1 µM
O=C(Nc1ccccc1)c1ccccc1O	MIC	My 331/88						62 µM
CCOC(=O)c1ccc(N2CCN(CCn3c(-c4ccc(OC(F)(F)F)cc4)nc4cc(C(=O)OCC)ccc43)CC2)c(N)c1	MIC	H37Rv			resazurin			0.135 µM
NN1C(=O)C2C3C=CC(O3)C2C1=O	inhibition	H37Rv			BACTEC		12.5 µg/mL	-1%
NC(=O)CCC1=NNC(=O)CC1	MIC	H37Rv						500 µg/mL
CN[C@@H]1[C@H](O[C@H]2[C@H](O[C@H]3[C@H](O)[C@@H](O)[C@H](N=C(N)N)[C@@H](O)[C@@H]3N=C(N)N)O[C@@H](C)[C@]2(O)C=O)O[C@@H](CO)[C@H](O)[C@H]1O	MIC	MTB9 (RIF-R)						1.25 µg/mL
CCOC(=O)c1c(N)sc2sc(-c3ccc(Cl)cc3Cl)cc12	MIC	MDR-TB				multidrug-resistant		4.2 µM
Cc1nc(N)c2ncn([C@@H]3O[C@H](CO)[C@@H](O)[C@H]3O)c2n1	MIC	ATCC 35822 (isoniazid-resistant)						3.13 µg/mL
O=C(NNC1O[C@@H](CO)[C@@H](O)[C@H](O)[C@@H]1O)c1ccncc1	MIC90	H37Rv (ATCC 27294)						1.25 µg/mL
O=C(Nc1ccc(NC2=NCCN2)cc1)c1cc(C(=O)Nc2ccc(NC3=NCCN3)cc2)cc([N+](=O)[O-])c1	inhibition	H37Rv			resazurin		6.25 µg/mL	80%
NNC(=O)c1ccncc1	MIC	H37Ra			resazurin			1.9 µM
CC1CC(C)CN(c2ccc([N+](=O)[O-])s2)C1	MIC	H37Rv			resazurin			3.125 µg/mL
Cn1c(O)c(N=NC(=O)c2ccc(O)cc2O)c2ccccc21	MIC50	H37Ra			resazurin			>50 µg/mL
NNC(=O)CCCCC(=O)O	MIC	H37Rv						60–100 µg/mL
CO[C@H]1/C=C/O[C@@]2(C)Oc3c(C)c(O)c4c(O)c(c(/C=N/N5CCN(C)CC5)c(O)c4c3C2=O)NC(=O)/C(C)=C\C=C\[C@H](C)[C@H](O)[C@@H](C)[C@@H](O)[C@@H](C)[C@H](OC(C)=O)[C@@H]1C	MIC	H37Rv (p-aminosalicylate-resistant)						1.25 µg/mL
O=c1[nH]c2ccccc2c(=O)n1-c1ccc(F)cc1	MIC	My 331/88						>250 µM
CCOC(=O)c1ccc(N2CCN(CCn3c(-c4cncc(-c5ccc(F)cc5)c4)nc4cc(C(=O)OCC)ccc43)CC2)c(N)c1	MIC	H37Rv			resazurin			0.112 µM
O=C(NNC1O[C@@H](CO)[C@@H](O)[C@H](O)[C@H]1O)c1ccncc1	MIC90	H37Rv (ATCC 27294)						3.12 µg/mL
O=C(/C=C/C=C/c1ccc2c(c1)OCO2)N1CCCCC1	MIC				PCR	clinical isolate		>100 µg/mL
O=C(NN=Cc1cccc(Br)c1)c1ccc(-n2cc(-c3ccccc3)nn2)cc1O	MIC	H37Rv			resazurin			1.56 µg/mL
COc1ccc(-c2csc(-n3c(C)ccc3C)n2)cc1	MIC	H37Rv			resazurin			6.25 µg/mL
CCN(CC)CCCC(C)Nc1ccnc2cc(Cl)ccc12	MIC	H37Ra			resazurin			2612 µM
CC(=O)OC[C@@]12[C@@H](OC(C)=O)C[C@@H](C)[C@](C)([C@@H]3CC4C=COC4O3)[C@H]1CCC[C@]21CO1	MIC	H37Rv						>128 µg/mL
CC1CCN(c2sc([N+](=O)[O-])cc2[N+](=O)[O-])CC1	MIC	H37Rv			resazurin			6.25 µg/mL
Cc1occc1C(=S)Nc1ccc(Cl)c(OCC(=O)OC(C)(C)C)c1	MIC bound	H37Rv			BACTEC			>12.5 µg/mL
Cc1ccc(NC(=O)c2ccccc2O)cc1	MIC	My 331/88						62 µM
Cc1ccc(-c2cc3c(C#N)c(N)sc3s2)cc1	MIC	MDR-TB				multidrug-resistant		23.1 µM
CC1CC(C)CN(c2sc([N+](=O)[O-])cc2[N+](=O)[O-])C1	MIC	H37Rv			resazurin			6.25 µg/mL
C[C@H]1[C@H](NC(=O)/C(=N\OC(C)(C)C(=O)O)c2csc(N)n2)C(=O)N1S(=O)(=O)O	inhibition	H37Rv			BACTEC		12.5 µg/mL	11%
O=C(Nc1ccc(Br)cc1)c1ccccc1O	MIC	My 331/88						31 µM
CC1(C)O[C@H]2OC(/C=N/NC(=O)c3ccncc3)[C@H](O)[C@H]2O1	MIC90	H37Rv (ATCC 27294)						0.62 µg/mL
Cc1ccc(-n2c(=O)oc3ccccc3c2=O)cc1	MIC	My 331/88						62 µM
COc1ccc(OC)c(C=NNC(=O)c2ccc(-n3cc(-c4ccccc4)nn3)cc2O)c1	MIC	H37Rv			resazurin			1.56 µg/mL
O=C(N=Nc1c(O)[nH]c2ccccc12)c1ccc(O)cc1O	MIC50	H37Ra			resazurin			>50 µg/mL
O=C(CNC(=O)NCc1ccco1)NNC(=O)Nc1ccc(F)c(Cl)c1	inhibition	H37Rv			BACTEC		12.5 µg/mL	42%
O=C1c2cccc([N+](=O)[O-])c2C(=O)N1c1cccc(O)c1	MIC50	H37Ra			resazurin			>50 µg/mL
Cl.FC(F)(F)C1(C(F)(F)F)N=CC=CN1	MIC	H37Rv			BACTEC			≥12.8 µg/mL
O=c1oc2ccccc2c(=O)n1-c1ccc(F)cc1	MIC	My 331/88						125 µM
O=C(NNC1OC[C@H](O)[C@@H](O)[C@@H]1O)c1ccncc1	MIC90	H37Rv (ATCC 27294)						>100 µg/mL
OC(c1cc(-c2ccc(Cl)c(Cl)c2)nc2ccccc12)C1CCCCN1	MIC	H37Rv		VERO				3.13 µg/mL
CC[C@@H](CO)NCCN[C@@H](CC)CO	MIC	H37Rv			resazurin			3.13 µg/mL
O=C(N/N=C/c1cccs1)c1ccncc1	MIC	H37Rv		VERO				0.1155 µg/mL
CCCCN1CCN(c2ccc3nc(-c4ccc5nc(-c6ccc(OC)c(OC)c6)[nH]c5c4)[nH]c3c2)CC1	MIC90	H37Rv			broth dilution / turbidity			14.59 µg/mL
NC[C@@H]1O[C@H](O[C@H]2[C@@H](O)[C@H](O[C@@H]3[C@@H](O)[C@H](N)C[C@H](N)[C@H]3O[C@H]3O[C@H](CO)[C@@H](O)[C@H](O)[C@H]3N)O[C@@H]2CO)[C@H](N)[C@@H](O)[C@@H]1O	MIC	MTB23 (S)						<0.09 µg/mL
O=C(O)CCCCC(=O)O	MIC	H37Rv						>100 µg/mL
Cn1c(C(=O)N=Nc2c(O)[nH]c3ccc(Br)cc23)cc2ccccc21	MIC50	H37Rv			resazurin			>50 µg/mL
C/C(=N/NC(=S)NCc1ccccc1)c1nccnc1C	MIC	ETA-R						3.1 µg/mL
Cc1ccc(-n2c(=O)[nH]c3ccccc3c2=O)cc1C	MIC	My 331/88						500 µM
O=C(O)CCCCCC(=O)O	MIC	H37Rv						>100 µg/mL
O=C(N=Nc1c(O)[nH]c2ccccc12)c1ccc([N+](=O)[O-])cc1Cl	MIC50	H37Rv			resazurin			>50 µg/mL
CCCCCCCC(=O)N1C2CC3CCC2(CS1(=O)=O)C3(C)C	MIC bound	H37Rv			BACTEC			>12.5 µg/mL
c1ccc(-c2csc(-n3cccc3)n2)cc1	MIC	H37Rv			resazurin			0.4 µg/mL
COC(=O)C1=C(C(=O)OC)P2(C)(C)N(C)C(=S)N2C1(c1ccccc1)c1ccccc1	MIC bound	H37Rv			BACTEC			>12.5 µg/mL
CCOC(=O)c1ccc(N2CCN(CCn3c(-c4ccc(Cl)cc4)nc4cc(C(=O)OCC)ccc43)CC2)c(N)c1	MIC	H37Rv			resazurin			0.195 µM
O=C1C=C[C@@H](COC2OC(CO)C(O)C(O)C2O)O1	MIC	H37Rv						6.3 µg/mL
O=c1[nH]c2ccccc2c(=O)n1-c1cccc([N+](=O)[O-])c1	MIC	My 331/88						200 µM
Oc1cc(O)c2c(c1)Oc1cc(O)cc(O)c1C2	MIC bound	H37Rv			BACTEC			>12.5 µg/mL
CC(=O)OC[C@@]12[C@@H](OC(C)=O)CC3C[C@@H](C)[C@](C)(CCC4=CC(=O)OC4)CC3[C@H]1CCC[C@]21CO1	MIC	H37Rv						>128 µg/mL
NNC(=O)c1ccncc1	MIC	INHR-MTB	INH resistant		broth dilution			11.37 µM
CC(C)=NNC(=O)CCCCC(=O)O	MIC	H37Rv						500 µg/mL
O=C(N=Nc1c(O)[nH]c2ccc(OC(F)(F)F)cc12)c1ccc(-n2cc(-c3ccccc3)nn2)cc1O	MIC	H37Rv			resazurin			>25 µg/mL
O=C(CCCC(=O)N/N=C/c1ccccc1O)N/N=C/c1ccccc1O	inhibition	H37Rv			BACTEC		12.5 µg/mL	13%
CC1COc2c(N3CCN(C)CC3)c(F)cc3c(=O)c(C(=O)O)cn1c23	MIC	SMI 17			BACTEC			0.5 µg/mL
COC1=C2CC(C)CC(OC)C(O)C(C)/C=C(\C)C(OC(N)=O)C(OC)/C=C\C=C(/C)C(=O)NC(=C(C=NC(C)(C)C)C1=O)C2=O	inhibition	H37Rv			BACTEC		12.5 µg/mL	96%
C[C@]1(COc2ccccc2)Cn2cc([N+](=O)[O-])nc2O1	MIC	H37Rv						0.06 µg/mL
COc1c(N2C[C@@H]3CCCN[C@@H]3C2)c(F)cc2c(=O)c(C(=O)O)cn(C3CC3)c12	MIC	H37Ra			resazurin			0.2 µM
CO[C@H]1/C=C/O[C@@]2(C)Oc3c(C)c(O)c4c(O)c(c(/C=N/N5CCN(C)CC5)c(O)c4c3C2=O)NC(=O)/C(C)=C\C=C\[C@H](C)[C@H](O)[C@@H](C)[C@@H](O)[C@@H](C)[C@H](OC(C)=O)[C@@H]1C	MIC	H37Rv			resazurin			0.001 µg/mL
COc1ccc(C(=O)CC(c2ccc(OC)c(OC)c2)c2c(O)c3ccccc3oc2=O)cc1OC	MIC bound	H37Rv			BACTEC			>12.5 µg/mL
O=C(NN=Cc1cccc(Cl)c1)c1ccc(-n2cc(-c3ccccc3)nn2)cc1O	MIC	H37Rv			resazurin			12.5 µg/mL
COc1cc(-c2csc(-n3c(C)ccc3C)n2)cc(OC)c1OC	MIC	H37Rv			resazurin			12.5 µg/mL
Cc1ccc2c(c1)N(CCCN1CC[N+](C)(C)CC1)c1ccccc1S2.[I-]	inhibition	H37Rv			BACTEC		12.5 µg/mL	1%
O=C1Nc2ccccc2/C1=N/N=C/c1ccccc1[N+](=O)[O-]	MIC50	H37Ra			resazurin			>50 µg/mL
O=C(NN=Cc1ccccn1)c1ccc(-n2cc(-c3ccccc3)nn2)cc1O	MIC	H37Rv			resazurin			3.12 µg/mL
Cc1cc(C(=O)N=Nc2c(O)[nH]c3ccc(Br)cc23)n[nH]1	MIC50	H37Ra			resazurin			>50 µg/mL
c1coc(-c2nc(N=C3N=c4ccccc4=N3)[nH]c2-c2ccco2)c1	MIC bound	H37Rv			BACTEC			>12.5 µg/mL
N#Cc1c(N)sc2sc(-c3ccc(Cl)cc3)cc12	MIC	MDR-TB				multidrug-resistant		21.5 µM
NNC(=O)C(=O)Nc1nccs1	MIC bound	H37Rv			BACTEC			>12.5 µg/mL
CC(=O)O[C@H]1CC[C@]2(C)[C@H]3CC[C@]4(C)[C@@H](C(C)/C=C/[C@H](C)C(C)C)CC[C@H]4[C@@]34C=C[C@]2(C1)O4	MIC	H37Rv						8 µg/mL

Again, the opening 11 rows:

{"SMILES": "O=C(O)CCC(CCC(=O)O)=NNC(=O)c1ccccc1", "read-out": "MIC", "strain": "H37Rv", "result": "100 µg/mL"}
{"SMILES": "COc1cc(C)c2c(Oc3cccc(C(F)(F)F)c3)c(OC)cc(NC(C)CCCN)c2n1", "read-out": "MIC", "strain": "H37Ra", "read by": "resazurin", "result": "10 µM"}
{"SMILES": "N#Cc1c(N)sc2sc(-c3ccccc3)cc12", "read-out": "MIC", "strain": "MDR-TB", "setting": "multidrug-resistant", "result": ">97.5 µM"}
{"SMILES": "COc1cccc2c1C(=O)c1c(O)c3c(c(O)c1C2=O)C[C@@](O)(/C(C)=N/NC(N)=O)CC3OC1CC(N)C(O)C(C)O1.Cl", "read-out": "MIC", "strain": "EMB-R", "result": ">12.5 µg/mL"}
{"SMILES": "CCOC(=O)c1c(N)sc2sc(-c3cccc4ccccc34)cc12", "read-out": "MIC", "strain": "MDR-TB", "setting": "multidrug-resistant", "result": "1.1 µM"}
{"SMILES": "O=C(Nc1ccccc1)c1ccccc1O", "read-out": "MIC", "strain": "My 331/88", "result": "62 µM"}
{"SMILES": "CCOC(=O)c1ccc(N2CCN(CCn3c(-c4ccc(OC(F)(F)F)cc4)nc4cc(C(=O)OCC)ccc43)CC2)c(N)c1", "read-out": "MIC", "strain": "H37Rv", "read by": "resazurin", "result": "0.135 µM"}
{"SMILES": "NN1C(=O)C2C3C=CC(O3)C2C1=O", "read-out": "inhibition", "strain": "H37Rv", "read by": "BACTEC", "tested at": "12.5 µg/mL", "result": "-1%"}
{"SMILES": "NC(=O)CCC1=NNC(=O)CC1", "read-out": "MIC", "strain": "H37Rv", "result": "500 µg/mL"}
{"SMILES": "CN[C@@H]1[C@H](O[C@H]2[C@H](O[C@H]3[C@H](O)[C@@H](O)[C@H](N=C(N)N)[C@@H](O)[C@@H]3N=C(N)N)O[C@@H](C)[C@]2(O)C=O)O[C@@H](CO)[C@H](O)[C@H]1O", "read-out": "MIC", "strain": "MTB9 (RIF-R)", "result": "1.25 µg/mL"}
{"SMILES": "CCOC(=O)c1c(N)sc2sc(-c3ccc(Cl)cc3Cl)cc12", "read-out": "MIC", "strain": "MDR-TB", "setting": "multidrug-resistant", "result": "4.2 µM"}